# Data: patent US20230295066A1, “Process for the Efficient Preparation of (Bio)-Alkanediols” (Symrise AG, priority 2020, published 2023)
# The amount applied is not stated for every result.
# Experiment: Sensory properties of lipid/alkanediol blends assessed by untrained panellists
# Format: in vivo
# Settings: scale 1 to 5; for Spreading, w: after 30 s
# [1] = CCT (neutral oil) blended with alkanediol 85:15
# [2] = Cacao butter blended with alkanediol 85:15
# [3] = Grapeseed Oil blended with alkanediol 85:15
# [4] = Octocrylene (Neo Heliopan 303) blended with alkanediol 85:15
# [5] = Octocrylene blended with alkanediol 85:15
# [6] = Olive Oil blended with alkanediol 85:15
# [7] = Argan Oil blended with alkanediol 85:15
# [8] = Avocado Oil blended with alkanediol 85:15
# [9] = Helianthus Annuus (Sunflower) Seed Oil blended with alkanediol 85:15
Compound,"Absorption, w [1]","Spreading, w [1]","Absorption, w [2]","Spreading, w [2]","Absorption, w [3]","Spreading, w [3]","Spreading, w [4]","Absorption, w [5]","Absorption, w [6]","Spreading, w [6]","Absorption, w [7]","Spreading, w [7]","Absorption, w [8]","Spreading, w [8]","Absorption, w [9]","Spreading, w [9]"
"CCCCC(O)CO (stereo not drawn) [1,2-C6, 1,2-hexanediol]",2.8,3.6,–,–,–,–,–,–,–,–,–,–,–,–,–,–
"CCCCCC(O)CO (stereo not drawn) [1,2-C7, 1,2-heptanediol]",2.7,3.4,3.6,3.8,2.8,3.8,3.5,3.5,2.4,4,–,–,–,–,–,–
"CCCCCCC(O)CO (stereo not drawn) [1,2-C8, 1,2-octanediol]",–,–,–,–,1.6,4,3.5,3.5,2.6,4.2,2.6,3.8,2.6,4,2,4.2
"CCCC(O)C(C)O (stereo not drawn) [2,3-C6, 2,3-hexanediol]",2.8,3.2,–,–,–,–,–,–,–,–,–,–,–,–,–,–
"CCCCC(O)C(C)O (stereo not drawn) [2,3-C7, 2,3-heptanediol]",3,3.6,3.2,3,2.2,3.6,3.5,3.5,2,4,–,–,–,–,–,–
"CCCCCC(O)C(C)O (stereo not drawn) [2,3-C8, 2,3-octanediol]",–,–,–,–,2.4,2.8,3.5,2.5,2.6,3.2,2.2,3.4,2.4,3.2,3.4,3.4
